# ChEMBL document CHEMBL3228038 (J Med Chem, 1979)
# Active and inactive are the calls of the source. The calls are words filed in the database; no cut-off is given here.
# Columns and labels:
# Mus musculus [1] = assay: Inhibition of morphine-induced analgesia in Swiss Webster mouse assessed as change in morphine ED50 at 2.4 nmol, icv after 2 hrs by tail flick test; type: functional, organism-based
# Mus musculus [2] = assay: Effect on development of dependence to morphine in Swiss Webster mouse assessed as increase in naloxone ED50 for eliciting withdrawal jumping at 0.24 nmol, icv after 24 hrs relative to control; type: functional, organism-based
# How it was run: (§1)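 Male Swiss Webster mice, 20-25 g. Given icv injection (4 µL saline vehicle) immediately after sc implantation of a 50 mg morphine or placebo pellet. At 24 and 72 h, naloxone given sc (10 mL/kg saline) and ED50 taken for precipitated withdrawal jumping (Way method). Groups of 4-5 mice per ED50.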
# Mus musculus [3] = assay: Effect on development of dependence to morphine in Swiss Webster mouse assessed as increase in naloxone ED50 for eliciting withdrawal jumping at 0.24 nmol, icv after 72 hrs relative to control; type: functional, organism-based; how it was run: as §1
# Mus musculus [4] = assay: Analgesic activity in Swiss Webster mouse at 4.8 nmol, icv after 60 mins by tail flick test
# Mus musculus [5] = assay: Analgesic activity in Swiss Webster mouse at 0.6 to 4.8 nmol, icv after 2 hrs by tail flick test
# Mus musculus [6] = assay: Analgesic activity in Swiss Webster mouse at 4.8 nmol, icv after 10 to 20 mins by tail flick test relative to control
# Mus musculus [7] = assay: Inhibition of morphine-induced analgesia in Swiss Webster mouse assessed as increase in morphine ED50 at 0.6 nmol, icv after 2 hrs by tail flick test
# Mus musculus [8] = assay: Inhibition of morphine-induced analgesia in Swiss Webster mouse assessed as change in morphine ED50 at 1.2 nmol, icv after 10 mins in presence of naloxone
# Mus musculus [9] = assay: Inhibition of morphine-induced analgesia in Swiss Webster mouse assessed as increase in morphine ED50 at 1.2 nmol, icv after 2 hrs by tail flick test relative to control
# Mus musculus [10] = assay: Inhibition of morphine-induced analgesia in Swiss Webster mouse assessed as increase in morphine ED50 at 1.2 nmol, icv after 24 hrs by tail flick test relative to control
# Mus musculus [11] = assay: Inhibition of morphine-induced analgesia in Swiss Webster mouse assessed as increase in morphine ED50 at 1.2 nmol, icv after 72 hrs by tail flick test relative to control
smiles,measurement,setting,value
Oc1ccc2c3c1O[C@H]1[C@H](N(CCCl)CCCl)CC[C@@]4(O)[C@@H](C2)N(CC2CC2)CC[C@]314,fold change (FC),Mus musculus [1],179
same,fold change (FC),Mus musculus [2],14
same,fold change (FC),Mus musculus [3],> 5
same,Activity,Mus musculus [4],inactive
same,Activity,Mus musculus [5],inactive
same,Activity,Mus musculus [6],18%
same,fold change (FC),Mus musculus [7],7
same,inhibition,Mus musculus [8],inactive
same,fold change (FC),Mus musculus [9],66
same,fold change (FC),Mus musculus [10],6
same,fold change (FC),Mus musculus [11],2
